Results of unrelated studies side by side (data: NIAID ChemDB).

All rows: host cell toxicity; cells: HepG2; method: MTT; measure: CC50

CCn is the concentration with n% toxicity to the cells.

structure,value
O=C1C(=O)c2ccccc2C(O)=C1C1CCC(c2ccc(Cl)cc2)CC1,38.4 µM
Cc1nc2c(S(=O)(=O)c3ccccc3)cc3cc(F)ccc3c2s1,>125 µM
CC(N[C@H]1CS(=O)(=O)C[C@@H]1S(=O)(=O)c1ccc(F)cc1)c1ccccc1,>80 µg/mL
Cc1ccc(S(=O)(=O)c2cc3ccccc3c3sc(C)nc23)cc1,>250 µM
CC(C)C[C@@H]1NC(=O)[C@H](Cc2c[nH]c3ccccc23)NC(=O)CNC(=O)[C@H](CCCCN)NC(=O)[C@H](C(C)C)NC(=O)[C@@H](CC(C)C)NC1=O,>30 µM
Cc1cc(=O)oc2c3c(ccc12)OC(C)(C)[C@@H](OC(=O)c1ccccc1Br)[C@H]3OC(=O)c1ccccc1Br,>100 µM
C[C@@H]1O[C@@H](O[C@@H]2Cc3c(O)cc(O)cc3O[C@@H]2c2ccc(O)c(O)c2)[C@H](O)[C@H](O)[C@H]1O,>120 µM
COc1ccc2nc3cc(Cl)ccc3c(NCCCCNC(=O)/C=C/c3ccc(C)cc3)c2c1,8.6 µM
Cc1cc(NC(=O)c2c3c(c(C)n2C)C(=O)NC(C)CC3)ccc1F,>30 µM
O=C(Nc1ccc(Cl)c(Cl)c1)c1cc(Cl)ccc1O,1.99 µM
Cc1cc(=O)oc2c3c(ccc12)OC(C)(C)[C@@H](OC(=O)c1cccc(Cl)c1Cl)[C@H]3OC(=O)c1cccc(Cl)c1Cl,77.55 µM
CCn1c(C)c2c(c1C(=O)Nc1ccc(F)c(C)c1)CCC(C)(C)NC2=O,>30 µM
Cc1cc(=O)oc2c3c(ccc12)OC(C)(C)[C@@H](OC(=O)c1cccc(Br)c1)[C@H]3OC(=O)c1cccc(Br)c1,>100 µM
Cc1cc(NC(=O)c2c3c(c(C)n2C)C(=O)NC(C)(C)CC3)cnc1F,>30 µM
COc1ccc(N2CCN(Cc3ccc([N+](=O)[O-])o3)CC2)cc1,>63 µM
Cc1c2c(c(C(=O)Nc3cccc(Cl)c3)n1C)CCC(C)(C)NC2=O,>30 µM
CCC1(NC(=O)C(=O)c2c(C)c(C(=O)Nc3ccc(F)c(C)c3)c(C)n2C)CCN(S(C)(=O)=O)CC1,>30 µM
COC(=O)c1c(CC=C(C)C)c(O)c2ccccc2c1O,6.25 µg/mL
Cc1c(C(=O)Nc2cc(Cl)cc(Cl)c2)c(C)n(C)c1C(=O)C(=O)NC1CCC(O)CC1,5–30 µM
Cc1cc(NC(=O)c2c3c(C)c(C)[nH]c(=O)c3c(C)n2C)ccc1F,5–30 µM
CC(C)(C)Nc1nc2cc(-c3ccc(Cl)cc3)sc2c(=O)[nH]1,15 µM
COc1ccc2nc3cc(Cl)ccc3c(NCCCCNC(=O)/C=C/c3ccc(Cl)cc3)c2c1,4.3 µM
Cc1cc(NC(=O)c2c(C)c(C(=O)C(=O)NC3CCC(O)CC3)n(C)c2C2CC2)ccc1F,>30 µM
CC1(C)CCc2c(C(=O)OCc3ccc([N+](=O)[O-])cc3)c(O)c3ccccc3c2O1,12.5 µg/mL
CC(C)C[C@@H]1NC(=O)[C@H](Cc2c[nH]c3ccccc23)NC(=O)[C@H]2CCCN2C(=O)[C@H](CCCCN)NC(=O)[C@H](C(C)C)NC(=O)[C@@H](CC(C)C)NC1=O,>30 µM
CC1(C)C(=O)CC[C@]2(C)[C@@H]1CC[C@@]13CC[C@@H](C[C@H]12)C([C@@H](O)CO)C3,>100 µM
COC(=O)c1c2c(c3ccccc3c1OC)OC(C)(C)CC2,25 µg/mL
CN(C)CCCN=C(c1ccccc1)N(CCCN(C)C)c1ccnc2cc(Cl)ccc12,12.02 µg/mL
CC(=O)Oc1c(C(=O)OCc2ccccc2)c2c(c3ccccc13)OC(C)(C)CC2,25 µg/mL
Cc1cc(C=O)cc(C)c1Oc1cc(Nc2ccc(C#N)cc2)nc2ccccc12,65.9 µM
Cc1nc2c(S(=O)(=O)c3ccc(Cl)cc3)cc3cc(F)ccc3c2s1,>31.2 µM
Cc1ccc(-c2cc3nc(NC(C)C)[nH]c(=O)c3s2)cc1,49.4 µM
CC(C)C[C@@H]1NC(=O)[C@H](Cc2c[nH]c3ccccc23)NC(=O)[C@@H](Cc2ccccc2)NC(=O)[C@H](CCCCN)NC(=O)[C@H](C(C)C)NC(=O)[C@@H](CC(C)C)NC1=O,>30 µM
CC1(C)C(=O)C=C[C@]2(C)[C@@H]1CC[C@@]13CC[C@@H](C[C@H]12)[C@](O)(CO)C3,>100 µM
Cc1cc(C#N)cc(C)c1Oc1cc(Nc2ccc(C#N)cc2)nc2ccccc12,≥50 µg/mL
Cc1c(C(=O)NC2COCCOC2)c(C)n(C)c1C(=O)C(=O)NC(C)(C)C,>30 µM
Cc1ccccc1C(=O)O[C@H]1c2c(ccc3c(C)cc(=O)oc23)OC(C)(C)[C@H]1OC(=O)c1ccccc1C,22.69 µM
C=C1c2c(c(C)n(C)c2C(=O)Nc2ccc(F)c(C)c2)C(=O)NC1C,0.5–4.99 µM
Cc1ccc2cc(S(=O)(=O)c3ccccc3)c3nc(C)sc3c2c1,26 µM

The first 3 rows once more:

| structure | value |
|---|---|
| O=C1C(=O)c2ccccc2C(O)=C1C1CCC(c2ccc(Cl)cc2)CC1 | 38.4 µM |
| Cc1nc2c(S(=O)(=O)c3ccccc3)cc3cc(F)ccc3c2s1 | >125 µM |
| CC(N[C@H]1CS(=O)(=O)C[C@@H]1S(=O)(=O)c1ccc(F)cc1)c1ccccc1 | >80 µg/mL |

a–b is a range or a potency band. Conditions beyond the fields shown may differ between rows.